Pooled drug test results. Numbers come from NIAID ChemDB, via PubChem.

Common to all: tests on isolated targets

Inhibition is in % at the dose shown (toxicity tests: loss of growth or viability). ICn is the concentration giving n% inhibition. a–b is a range or a potency band. Lines come from different laboratories, so protocols vary. An empty or dashed field is not shown.

smiles	target	endpoint	method	tested at	strain	species	result
c1ccc(N2CCN(c3cncc(-c4ccoc4)n3)CC2)cc1	UL97 kinase	inhibition	-	1 µM	-	Cytomegalovirus	<50%
COc1ccc(-c2ccc(N(C)C)cc2)c(-c2ccc3cc(-c4nc5cc(C(=O)O)ccc5n4C4CCCCC4)ccc3n2)c1	NS5B polymerase	inhibition	-	33 µM	-	Hepatitis C virus	100.4%
CC(C)C[C@H](NC(=O)c1cnn2c(C3CCCCC3)c(-c3ccc(F)cc3)cnc12)C(=O)O	RNA-dependent RNA polymerase	IC50	-	-	-	Hepatitis C virus	1–10 µM
O=C(O)c1ccc2c(c1)nc(-c1ccc3[nH]c(-c4ccccc4)cc(=O)c3c1)n2C1CCCCC1	NS5B polymerase	inhibition	-	33 µM	-	Hepatitis C virus	39.89%
NC(=O)c1cccc(-c2cncc(N3CCN(c4ccncc4)CC3)n2)c1	UL97 kinase	inhibition	-	1 µM	-	Cytomegalovirus	<50%
CC(C)CNc1cc(-c2ccc(Cl)cc2)nc2cc(C(=O)O)nn12	RNA-dependent RNA polymerase	IC50	-	-	-	Hepatitis C virus	>10 µM
CO[C@H](C(=O)NO)[C@@H](CC(C)C)C(=O)N[C@H](C(=O)O)c1ccccc1	PfM1AAP	Ki	fluorescence	-	-	Plasmodium falciparum	2.4 µM
COc1ccc(-c2ccc(Cl)cc2)c(-c2ccc3cc(-c4nc5cc(C(=O)O)ccc5n4CC(C)C)ccc3n2)c1	NS5B polymerase	inhibition	-	100 µM	-	Hepatitis C virus	98.15%
c1ccc(COc2ccc(-c3cnc4c(-c5nn[nH]n5)cnn4c3C3CCSCC3)cc2)cc1	RNA-dependent RNA polymerase	IC50	-	-	-	Hepatitis C virus	1–10 µM
CC(=O)c1ccccc1-c1cncc(N2CCN(c3cccc(Cl)c3)CC2)n1	UL97 kinase	inhibition	-	10 µM	-	Cytomegalovirus	>15%
Nc1ccn([C@@H]2CS[C@H](COP(=O)(O)OP(=O)(O)OP(=O)(O)O)O2)c(=O)n1	DNA polymerase	Ki	-	-	-	Duck hepatitis B virus	0.78 µM
COc1ccc(-c2ccc(-c3nc4cc(C(=O)O)[nH]n4c(=O)c3C3CCCCC3)cc2)cc1F	RNA-dependent RNA polymerase	IC50	-	-	-	Hepatitis C virus	1–10 µM
O=C(O)C1CCCN1C(=O)c1ccc2c(c1)nc(-c1ccc3nc(-c4ccccc4)ccc3c1)n2C1CCCCC1	NS5B polymerase	inhibition	-	33 µM	-	Hepatitis C virus	49.99%
OCCN1CCN(CCOc2ccc(-c3ccccc3)cc2)CC1	Oxidosqualene cyclase	inhibition	-	10 µM	-	Pneumocystis carinii	48%
CN(Cc1cnc(N)nc1N)c1ccc(C(=O)NC(CCC(=O)O)C(=O)O)cc1	Dihydrofolate reductase	IC50	-	-	TYPE I	Cryptosporidium parvum	0.006 µM
O=C(OC1OC2COC(=O)c3cc(Oc4c(C(=O)OC5C(O)OC6COC(=O)c7cc(O)c(O)c(O)c7-c7c(cc(O)c(O)c7O)C(=O)OC6C5OC(=O)c5cc(O)c(O)c(O)c5)cc(O)c(O)c4O)c(O)c(O)c3-c3c(cc(O)c(O)c3O)C(=O)OC2C(OC(=O)c2cc(O)c(O)c(O)c2)C1O)c1cc(O)c(O)c(O)c1	DNA polymerase	inhibition	-	100 µg/mL	-	Epstein-Barr virus	70.8%
CC1c2nc(N)nc(N)c2CN1C(=O)c1ccccc1	Dihydrofolate reductase	IC50	-	-	TYPE II	Cryptosporidium parvum	>100 µM
O=C(O)c1cc2nc(-c3ccc(Cl)cc3)cc(-c3ccccc3)n2n1	RNA-dependent RNA polymerase	IC50	-	-	-	Hepatitis C virus	>10 µM
COc1ccc(OC)c(NCc2csc3nc(N)nc(N)c23)c1	DHFR	inhibition	-	10 µM	-	Pneumocystis carinii	<30%
O=C(O)c1ccc2c(c1)nc(-c1ccc3nc(-c4ccccc4)cc(Nc4ccccc4)c3c1)n2C1CCCCC1	NS5B polymerase	inhibition	-	100 µM	-	Hepatitis C virus	100.5%
COc1ccc(OC)c(N(C)Cc2csc3nc(N)nc(N)c23)c1	DHFR	IC50	-	-	-	Toxoplasma gondii	>10 µM
Nc1nc(-c2ccccc2)c(CCCNc2ccc(C(=O)NC(CCC(=O)O)C(=O)O)cc2)c(=O)[nH]1	Dihydrofolate reductase	IC50	-	-	TYPE II	Cryptosporidium parvum	>100 µM
O=C(O)c1cc2nc(-c3ccc(C(F)(F)F)cc3)cc(-c3ccc(-c4ccccc4)cc3)n2n1	RNA-dependent RNA polymerase	IC50	-	-	-	Hepatitis C virus	1–10 µM
Cc1ccc(N=Nc2c(N)nc(N)nc2N)cc1C	Dihydrofolate reductase	IC50	-	-	TYPE I	Cryptosporidium parvum	>1000 µM
O=C(O)c1cc2nc(-c3ccc(Cl)cc3)cc(-c3ccc(Cl)cc3Cl)n2n1	RNA-dependent RNA polymerase	IC50	-	-	-	Hepatitis C virus	>10 µM
c1ccc(N2CCN(c3cncc(-c4csc5ccccc45)n3)CC2)cc1	UL97 kinase	IC50	-	-	-	Cytomegalovirus	<10 µM
Cn1c2ccc(Cl)cc2c2cc(-c3ccc4cc(-c5nc6cc(C(=O)O)ccc6n5C5CCCCC5)ccc4n3)ccc21	NS5B polymerase	inhibition	-	100 µM	-	Hepatitis C virus	97.17%
Cc1[nH]nc2c1C(c1cc(C#N)cc(-c3ccnn3C)c1)(C1CCC1)C(C#N)=C(N)O2	Serine hydroxymethyltransferase	IC50	absorbance	-	-	Plasmodium falciparum	0.53 µM
CCCCCCCCCCCCCCCCCC(=O)OC[C@@H](COP(=O)(O)OCCNCCO[C@@]1(C(=O)O)O[C@@H]([C@H](O)[C@H](O)CO)[C@H](NC(C)=O)[C@@H](O)[C@H]1F)OC(=O)CCCCCCCCCCCCCCCCC	Sialidase	IC50	-	-	H3N2 A/AICHI/2/68	Influenza A virus	31.3 µM
FC(F)(F)c1ccc(N2CCN(c3cncc(-c4ccc5ccccc5c4)n3)CC2)cc1	UL97 kinase	inhibition	-	1 µM	-	Cytomegalovirus	<50%
CCC1(c2cc(Cl)cc(Cl)c2)C(C#N)=C(N)Oc2n[nH]c(C)c21	Serine hydroxymethyltransferase	Ki	absorbance	-	-	Plasmodium falciparum	0.281 µM
NC(=O)[C@H](Cc1cnc[nH]1)NC(=O)c1ccc2ccc(-c3nc4cc(C(=O)O)ccc4n3C3CCCCC3)cc2n1	NS5B polymerase	inhibition	-	100 µM	-	Hepatitis C virus	79.47%
COc1ccc(N2CCN(c3cncc(-c4cccc5ccccc45)n3)CC2)cc1OC	UL97 kinase	IC50	-	-	-	Cytomegalovirus	<100 µM
CCc1cc(Nc2cc(=O)n(CCCC(=O)NCc3ccco3)c(=O)[nH]2)ccc1C	DNA polymerase	IC50	-	-	-	Staphylococcus aureus	0.49 µM
CC1(C)O[C@H]2O[C@@H]3C(C4N[C@@H](c5ccccc5)[C@H](c5ccccc5)N4)=NO[C@@H]3[C@H]2O1	Beta-galactosidase	IC50	-	-	-	Aspergillus niger	>1000 µM
CC(=O)N[C@H]1[C@H]([C@H](N)[C@H](O)CO)OC(C(=O)[O-])=C[C@@H]1O	Neuraminidase	IC50	fluorescence	-	TYPE 3	Parainfluenza virus	2100 µM
O=C(O)c1cc2nc(-c3cccc(Cl)c3)cc(-c3ccccc3)n2n1	RNA-dependent RNA polymerase	IC50	-	-	-	Hepatitis C virus	>10 µM
Cc1[nH]nc2c1C(c1cc(Cl)cc(-c3ccc(C(=O)OCc4ccccc4)cc3)c1)(C1CCC1)C(C#N)=C(N)O2	Serine hydroxymethyltransferase	IC50	absorbance	-	-	Plasmodium falciparum	1.96 µM
O=C1O[C@H]2C(O)O[C@@H]3COC(=O)c4cc(O)c(O)c(O)c4-c4c(cc(c(O)c4O)Oc4c(cc(O)c(O)c4O)C(=O)O[C@@H]4[C@@H](OC(=O)c5cc(O)c(O)c(O)c5)[C@@H]5OC(=O)c6cc(O)c(O)c(O)c6-c6c(cc7c(c6O)OC6C(O7)C1=CC(=O)C6(O)O)C(=O)OC[C@H]5O[C@H]4O)C(=O)O[C@H]3[C@@H]2OC(=O)c1cc(O)c(O)c(O)c1	DNA polymerase	inhibition	-	5 µg/mL	-	Epstein-Barr virus	46.9%
CC(C)C(=O)N[C@H]1C([C@H](C)[C@@H](O)CO)OC(C(=O)O)=C[C@@H]1NS(=O)(=O)C(Cl)Cl	Neuraminidase	IC50	-	-	TYPE 1	Parainfluenza virus	1.2 µM
CCc1cc(Nc2cc(=O)n(CCCC(=O)N(C)Cc3ccco3)c(=O)[nH]2)ccc1C	DNA polymerase	IC50	-	-	-	Staphylococcus aureus	0.07 µM
COc1ccc(Cl)cc1-c1cncc(N2CCN(c3ccccc3)CC2)n1	UL97 kinase	inhibition	-	10 µM	-	Cytomegalovirus	>15%
O=C(O)c1ccc2c(c1)nc(-c1ccc3nc(-c4cc(F)ccc4-c4ccc(Cl)cc4)ccc3c1)n2C1CCCCC1	NS5B polymerase	inhibition	-	100 µM	-	Hepatitis C virus	101%
c1ccc(N2CCN(c3cncc(-c4ccc5ccccc5c4)n3)CC2)cc1	UL97 kinase	inhibition	-	1 µM	-	Cytomegalovirus	<50%
COC(=O)CCc1cccc(-c2cc(Cl)cc(C3(C4CCC4)C(C#N)=C(N)Oc4n[nH]c(C)c43)c2)c1	Serine hydroxymethyltransferase	Ki	absorbance	-	-	Plasmodium falciparum	0.174 µM
CN(C)c1ccc(-c2cncc(N3CCN(c4cccc(C(F)(F)F)c4)CC3)n2)cc1	UL97 kinase	inhibition	-	10 µM	-	Cytomegalovirus	>15%
C[C@@]1(O)[C@H](O)[C@@H](CO)O[C@H]1n1ccc(N)nc1=O	RNA polymerase	Ki	-	-	-	Bovine viral diarrhea virus	0.16 µM

The first 3 rows once more:

{"smiles": "c1ccc(N2CCN(c3cncc(-c4ccoc4)n3)CC2)cc1", "target": "UL97 kinase", "endpoint": "inhibition", "tested at": "1 µM", "species": "Cytomegalovirus", "result": "<50%"}
{"smiles": "COc1ccc(-c2ccc(N(C)C)cc2)c(-c2ccc3cc(-c4nc5cc(C(=O)O)ccc5n4C4CCCCC4)ccc3n2)c1", "target": "NS5B polymerase", "endpoint": "inhibition", "tested at": "33 µM", "species": "Hepatitis C virus", "result": "100.4%"}
{"smiles": "CC(C)C[C@H](NC(=O)c1cnn2c(C3CCCCC3)c(-c3ccc(F)cc3)cnc12)C(=O)O", "target": "RNA-dependent RNA polymerase", "endpoint": "IC50", "species": "Hepatitis C virus", "result": "1–10 µM"}